{
  "source": "patent US20160143995A1",
  "about": "“Method of Treating Intracellular Infection” (priority 2013, published 2016)",
  "system": "Legionella pneumophila",
  "type": "in vivo",
  "details": "C57BL/6 mice, single dose 10 mg/Kg intraperitoneally six hours after infection; lungs two days after infection; P<0.05",
  "data": [
    {"smiles": "CC[C@H](NC(=O)[C@H](C)NC)C(=O)N1C[C@@H](O)C[C@H]1Cc1c(-c2[nH]c3cc(F)ccc3c2C[C@@H]2C[C@H](O)CN2C(=O)[C@H](CC)NC(=O)[C@H](C)NC)[nH]c2cc(F)ccc12", "note": "[Birinapant, birinapant]", "values": [
      {"measurement": "clearance of Legionella pneumophila compared to control treatment", "value": "promotes the clearance of Legionella pnemophila and disease resolution"}
    ]}
  ]
}
